Pooled drug test results. Numbers come from NIAID ChemDB, via PubChem.

Shared fields: cytotoxicity tests; read-out: CC50

Lines come from different laboratories, so protocols vary. CCn: concentration that lowers growth or viability of the cells by n%. An empty or dashed field is not shown.

structure,cell line,read by,value
O=C(NCCc1ccc2c(n1)NCCC2)Nc1cccc(Cl)c1F,PBMC,,16 µM
CSc1nsc(-c2cccnc2)c1C#N,L929,,20 µM
CN1C(=O)c2c(c3cccnc3n(O)c2=O)NC1c1cccc(CN2CCOCC2)c1,HeLa,,<100 µM
Nc1nc2c(ncn2COC(CO)CO)c(=O)[nH]1,RF,cell count,>900 µM
C/C(=N\NC(=O)c1ccc(Cl)cc1)c1cccc(/C(C)=N/NC(=O)c2ccc(Cl)cc2)n1,Jurkat cells,MTT,>100 µM
Nc1nc(-c2ccc(NC(=O)NCc3cccc(F)c3)cc2)cs1,HS68,,<8 µM
Cn1ccc(CN2CCn3c(nc(C(=O)NCc4ccc(F)cc4)c(O)c3=O)C23CC3)n1,MT-4,microscopy,>1 µM
CC(C)N(Cc1cccc(OCCCCCC(=O)OC(=O)O)c1)C(=O)c1ccc(-c2ccc3[nH]ccc3c2)cc1,RAJI,,>20 µM
Nc1nc(Cl)cc(OC[C@H]2CC[C@@H](COCc3ccccc3)O2)n1,L1210,,132 µM
CSc1nsc(-c2ccc(Cl)cc2)c1C#N,HEP-2,,5 µM
COc1ccc2nc3cc(Cl)ccc3c(NCCCCCCN)c2c1,KB cells,MTS,7 µM
CSc1nsc(-c2c(Cl)cccc2Cl)c1C#N,L929,,5 µM
COc1cc(OC[C@H]2CC[C@@H](COCc3ccccc3)O2)ncn1,CAKI-1,,90 µM
NCc1ccc(S(=O)(=O)NCCc2ccc3c(n2)NCCC3)cc1,PBMC,,50 µM
CCN1CCn2c(nc(C(=O)NCc3ccc(F)c(C)c3)c(O)c2=O)C(N(C)C(=O)C(=O)N(C)C)C1,MT-4,microscopy,>1 µM
COc1ccc2nc3cc(Cl)ccc3c(NCCCCCCN3CCNCC3)c2c1,KB cells,MTS,0.425 µM
CCCN([C@H](CO)CCC[C@H](CC)NC(=O)[C@H](Cc1cccc2ccccc12)NC(=O)OC)S(=O)(=O)c1ccc(CO)cc1,T lymphoid cells,microscopy,>10 µM
O=[N+]([O-])c1c(N2CC[N+]3(CC2)CC[N+]2(CCNCC2)CC3)ncnc1N1CC[N+]2(CC1)CC[N+]1(CCNCC1)CC2,L929,,>232.4 µg/mL
Cn1ccc2ccc(NC(=O)NCCc3ccc4c(n3)NCCC4)cc21,PBMC,,0.48 µM
O=C(NCCCl)N1CC[N+]2(CC1)CC[N+]1(CCN(C(=O)NCCCl)CC1)CC2,GMK,,>90.4 µg/mL
O=c1[nH]c(=O)n([C@H]2C[C@H](O)[C@@H](CO)O2)cc1I,NIH 3T3,cell count,7 µM
Nc1nc(-c2ccc(NC(=O)NCCc3ccccn3)cc2)cs1,HS68,,<93 µM
Cc1nc(N2CCCC2)c([N+](=O)[O-])c(N2CC[N+]3(CC2)CC[N+]2(CCN(c4nc(C)nc(N5CCCC5)c4[N+](=O)[O-])CC2)CC3)n1,GMK,,>70.7 µg/mL
Nc1nccc(OC[C@H]2CC[C@@H](CO)O2)n1,PC-3,,>250 µM
Cc1nc(CN2CCn3c(nc(C(=O)NCc4ccc(F)cc4)c(O)c3=O)C2(C)C)no1,MT-4,microscopy,>1 µM
Nc1nc(N)nc(OC[C@H]2CC[C@@H](COCc3ccccc3)O2)n1,CAKI-1,,134 µM
CC[C@@H](CCC[C@@H](CO)N(CCC(C)C)S(=O)(=O)c1ccc(N)c(Br)c1)NC(=O)[C@@H](NC(=O)OC)C(c1ccccc1)c1ccccc1,T lymphoid cells,microscopy,>10 µM
COc1cccc(-c2ccc(C(=O)N(Cc3cccc(OCCCCCC(=O)OC(=O)O)c3)C(C)C)cc2)c1,RAJI,,>20 µM
N#Cc1csnc1-c1ccccc1,L929,,100 µM
O=C(NCCCCNc1c2ccccc2nc2ccccc12)[C@@H]1CCCN1,KB cells,MTS,0.295 µM
CSc1nc(Cl)c(C=O)c(N2CC[N+]3(CC2)CC[N+]2(CCN(c4nc(SC)nc(Cl)c4C=O)CC2)CC3)n1,L929,,>55.2 µg/mL
CC(=O)OC(C(C)C(C)C(C)(C)O)C1OC12C(O)CC1C3CCC4CC(=O)CCC4C3CCC12CO,P-388,MTT,>50 µg/mL
N#Cc1c(-c2ccccc2)nsc1Cl,L929,,20 µM
Nc1cc(OCC2O[C@H](COCc3ccccc3)[C@@H](OCc3ccccc3)[C@H]2OCc2ccccc2)nc(N)n1,PC-3,,22 µM
CCOC(=O)c1c(O)c2cc(-c3ccccc3OC)cnc2n(O)c1=O,HeLa,,<100 µM
Nc1nc(-c2ccc(C(=O)N(Cc3ccccc3)Cc3ccccc3)cc2)cs1,HS68,,<32 µM
COc1ccc(S(=O)(=O)N(CC(C)C)C[C@@H](O)[C@H](Cc2ccccc2)NC(=O)[C@]23CC[C@@H](C)[C@H](C)[C@H]2C2=CC[C@@H]4[C@@]5(C)CCC(=O)C(C)(C)[C@@H]5CC[C@@]4(C)[C@]2(C)CC3)cc1,HUVEC,absorbance,>100 µM
CCC[C@@H](CCC[C@@H](CO)N(CCC(C)C)S(=O)(=O)c1ccc(N)cc1)NC(=O)[C@@H](NC(=O)OC)C(c1ccccc1)c1ccccc1,T lymphoid cells,microscopy,>10 µM
CCN(CC)C(=S)Sc1ncnc(N2CC[N+]3(CC2)CC[N+]2(CCN(c4ncnc(SC(=S)N(CC)CC)c4[N+](=O)[O-])CC2)CC3)c1[N+](=O)[O-],GMK,,>560.5 µg/mL
Cc1cc(C=O)cc(C)c1Oc1cc(Nc2ccc(C#N)cc2)nc2ccccc12,HuCCA-1,MTT,29.4 µM
CSc1nsc(-c2ccc(C)cc2)c1C#N,L929,,18 µM
c1ccc(COC[C@@H]2CC[C@H](COc3ncnc4nc[nH]c34)O2)cc1,PC-3,,84 µM
CSc1nsc(-c2ccc(O)cc2)c1C#N,HEP-2,,2 µM
CCN(CC)C(=O)N1CCN(c2ncnc(N3CC[N+]4(CC3)CC[N+]3(CCN(c5ncnc(N6CCN(C(=O)N(CC)CC)CC6)c5[N+](=O)[O-])CC3)CC4)c2[N+](=O)[O-])CC1,K562,,>203.7 µg/mL
CSc1nsc(-c2ccc(Cl)cc2Cl)c1C#N,HEP-2,,8 µM
CC(C)CN(C[C@@H](O)[C@H](Cc1ccccc1)NC(=O)[C@]12CC[C@@H](C)[C@H](C)[C@H]1C1=CC[C@@H]3[C@@]4(C)CC[C@@H](O)C(C)(C)[C@@H]4CC[C@@]3(C)[C@]1(C)CC2)S(=O)(=O)c1ccc([N+](=O)[O-])cc1,HUVEC,absorbance,>100 µM
CC(=O)OC(C(C)C(C)C(C)(C)OC(C)=O)C1OC12C(O)CC1C3CCC4CC(=O)CCC4C3CCC12CO,HEL,MTT,>50 µg/mL
CC(C)CN(C[C@@H](O)[C@H](Cc1ccccc1)NC(=O)[C@]12CCC(C)(C)C[C@H]1C1=CC[C@@H]3[C@@]4(C)CC[C@@H](O)C(C)(C)[C@@H]4CC[C@@]3(C)[C@]1(C)CC2)S(=O)(=O)c1ccc(N)cc1,HUVEC,absorbance,86.85 µM
CCCN([C@H](CO)CCC[C@@H](NC(=O)[C@@H](NC(=O)OC)C(c1ccccc1)c1ccccc1)C1CC1)S(=O)(=O)c1ccc(CO)cc1,T lymphoid cells,microscopy,>10 µM
CCOC(=O)c1c(O)c2cc(C(=O)NCc3ccccc3OC)cnc2n(O)c1=O,HeLa,,<100 µM
Nc1cc(OC[C@H]2CC[C@@H](CO)O2)nc(N)n1,PC-3,,>250 µM
COC(=O)N[C@H](C(=O)N[C@H](CCC[C@@H](CO)N(CC(C)C)S(=O)(=O)c1ccc(CO)cc1)C(F)(F)F)C(c1ccccc1)c1ccccc1,T lymphoid cells,microscopy,>10 µM
Cn1nncc1CN1CCn2c(nc(C(=O)NCc3ccc(F)cc3)c(O)c2=O)C1(C)C,MT-4,microscopy,>1 µM
OC[C@@H]1CC[C@H](COc2ncnc3nc[nH]c23)O1,PC-3,,>250 µM
CC(C)N(Cc1cccc(OCCCCCC(=O)OC(=O)O)c1)C(=O)c1ccc(-c2ccc(Cl)c(Cl)c2)cc1,RAJI,,>20 µM
CN1CCN(C(=O)C(=O)N(C)C2COCCn3c2nc(C(=O)NCc2ccc(F)cc2)c(O)c3=O)CC1,MT-4,microscopy,>1 µM
O=[N+]([O-])c1cncnc1N1CC[N+]2(CC1)CC[N+]1(CCN(c3ncncc3[N+](=O)[O-])CC1)CC2,GMK,,>369.4 µg/mL
CS(=O)(=O)N1CCc2nc(C(=O)NCc3ccc(F)cc3)c(O)c(=O)n2CC1,MT-4,microscopy,>1 µM
Nc1cccc(-c2ccc3c(c2)CN(c2cc(=O)n(O)c4ncccc24)CC3)c1,HeLa,,<100 µM
O=C(NCc1ccc2c(n1)NCCC2)Nc1ccc(Cl)c(Cl)c1,PBMC,,50 µM
Nc1nc(=O)n([C@@H]2O[C@H](CO)[C@@H](O)[C@@H]2F)cc1I,BCBL-1,cell count,49 µM
CC(C)CN(C[C@@H](O)[C@H](Cc1ccccc1)NC(=O)[C@]12CC[C@@H](C)[C@H](C)[C@H]1C1=CC[C@@H]3[C@@]4(C)CCC(=O)C(C)(C)[C@@H]4CC[C@@]3(C)[C@]1(C)CC2)S(=O)(=O)c1ccc(N)cc1,HUVEC,absorbance,>100 µM
Nc1nc(-c2ccc(NC(=O)CCNCc3cccc(F)c3)cc2)cs1,HS68,,<3.7 µM
Nc1nc2c(ncn2CCC(CO)CO)c(=O)[nH]1,OMK,cell count,308 µM
COC(=O)N[C@@H](Cc1ccccc1Cl)C(=O)N[C@@H](C)CCC[C@@H](CO)N(C(C)C)S(=O)(=O)c1ccc(N)cc1,T lymphoid cells,microscopy,>10 µM
CC(NC(=O)NCCc1ccc2c(n1)NCCC2)c1ccccc1,PBMC,,50 µM
COc1ccc2nc3cc(Cl)ccc3c(NCCN)c2c1,MRC-5 cells,MTS,0.105 µM
O=C(O)c1cc(-c2ccco2)nc2ccccc12,RAJI,,>20 µM

6 of the rows above, restated:

O=C(O)c1cc(-c2ccco2)nc2ccccc12 ; cell line: RAJI ; value: >20 µM
CSc1nsc(-c2ccc(C)cc2)c1C#N ; cell line: L929 ; value: 18 µM
CCCN([C@H](CO)CCC[C@@H](NC(=O)[C@@H](NC(=O)OC)C(c1ccccc1)c1ccccc1)C1CC1)S(=O)(=O)c1ccc(CO)cc1 ; cell line: T lymphoid cells ; read by: microscopy ; value: >10 µM
Nc1nc(=O)n([C@@H]2O[C@H](CO)[C@@H](O)[C@@H]2F)cc1I ; cell line: BCBL-1 ; read by: cell count ; value: 49 µM
O=[N+]([O-])c1cncnc1N1CC[N+]2(CC1)CC[N+]1(CCN(c3ncncc3[N+](=O)[O-])CC1)CC2 ; cell line: GMK ; value: >369.4 µg/mL
CSc1nsc(-c2ccc(Cl)cc2)c1C#N ; cell line: HEP-2 ; value: 5 µM